The source of these data is patent publication US20240287123A1 (Victoria Link Limited, priority 2021, published 2024).

The test system of one series is EBV (Akata/Akata). Nature of the series: EBV assay: viral DNA quantification in induced Akata cells. Type of series: cell-based, Epstein-Barr virus. The settings on record: for Normalised value = (Compound EC50/CDV control EC50): EBV; for EBV SI50: Akata/Akata, Table 1. The procedure: (§1) Akata cells were obtained from Louisiana State University, Baton Rouge, LA. The HCMV strain AD169 was obtained from the American Type Culture Collection (ATCC, Manassas, VA). Akata cells latently infected with EBV were obtained from Louisiana State University, Baton Rouge, LA.
(§2) Each experiment that evaluates the antiviral activity of compounds includes both positive and negative control compounds to ensure the performance of each assay. Concurrent assessment of cytotoxicity was also performed for each study in the same cell line and with the same compound exposure.
Assays for EBV were performed by reported methods.^37 Akata cells were induced to undergo a lytic infection with 50 μg/ml of a goat anti-human IgG antibody. Experimental compounds were diluted within plates. The cells were added and incubated for 72 h. Similar plates were initiated without virus induction/addition and used for measuring cytotoxicity by the addition of CTG. For all assays, the replication of the virus was assessed by the quantification of viral DNA. For EBV, primers 5′-[…]-3′ and 5′-CAG TTC CTC GCCTTAGGTTG-3 amplified a fragment corresponding to coordinates 96802-97234 in EBV genome (AJ507799). Compound concentrations sufficient to reduce genome copy number by 50% were calculated from experimental data as well as compound cytotoxicity.

The subject of series [1] is HCMV (AD169 strain in HFF cells). Nature of the series: CPE (cytopathic effect) assay for HCMV. Type of series: cell-based, Human Cytomegalovirus. Particulars: Table 1. The method, then:
Human foreskin fibroblast (HFF) cells prepared from human foreskin tissue were obtained from the University of Alabama at Birmingham tissue procurement facility with approval from its IRB. The tissue was incubated at 4° C. for 4 h in Clinical Medium consisting of minimum essential media (MEM) with Earl's salts supplemented with 10% fetal bovine serum (FBS) (Hyclone, Inc. Logan UT), L-glutamine, fungizone, and vancomycin. Tissue was then placed in phosphate buffered saline (PBS), minced, rinsed to remove the red blood cells, and resuspended in trypsin/EDTA solution. The tissue suspension was incubated at 37° C. and gently agitated to disperse the cells, which were collected by centrifugation. Cells were resuspended in 4 ml Clinical Medium and placed in a 25 cm^2 flask and incubated at 37° C. in a humidified CO2 incubator for 24 h. The media was then replaced with fresh Clinical Medium and the cell growth was monitored daily until a confluent monolayer had formed. The HFF cells were then expanded through serial passages in standard growth medium of MEM with Earl's salts supplemented with 10% FBS, L-glutamine, penicillin, and gentamycin.
as §1, §2
Assays were performed in monolayers as described.37 Cells were seeded in 384 well plates and incubated for 24 h to allow the formation of confluent monolayers. […] After incubation, cytopathology was determined by the addition of CellTiter-Glo (CTG) reagent. […] Toxicity was measured using CTG as above.
On the technique in general: Protection from cytopathic effect is a common read-out in antiviral testing.

The subject of another series is HHV-6B (Z29; MOLT-3). Nature of the series: HHV-6B antiviral assay (Z29; MOLT-3). Type of series: cell-based, human betaherpesvirus 6B.

On to `CC(C)(C)C(=O)SCCOP(=O)(OCCSC(=O)C(C)(C)C)OCC1=C[C@@H](O)[C@H](n2ccc(NO)nc2=O)O1`, for which the “Normalised value = (Compound EC50/CDV control EC50)” value with EBV (Akata/Akata) (Secondary) is reported as 2.78. As to `Nc1ccn(C[C@@H](CO)OCP(=O)(O)O)c(=O)n1` [Cidofovir, cidofovir, reference compound], the “EBV SI50” value with EBV (Akata/Akata) was greater than 12 µM. With `CC(C)C(=O)OCC1=C[C@@H](O)[C@H](n2ccc(N)nc2=O)O1` [Compound 8, 3′-Deoxy-3′,4′-didehydro-5′-O-isobutyroyl-cytidine], the “HCMV SI50” value in series [1] was greater than 2381 µM. In the series with EBV (Akata/Akata), the “EBV SI50” value is greater than 7 µM. Further, the “Normalised value = (Compound EC50/CDV control EC50)” value in the series with EBV (Akata/Akata) (Primary) was found to be 0.92. For `CC(C)C(=O)OCC1=C[C@@H](O)[C@H](n2ccc(NO)nc2=O)O1` [Compound 10, 3′-Deoxy-3′,4′-didehydro-4-N-hydroxy-5′-O-isobutyroyl-cytidine] the same measures were greater than 1786 µM, greater than 2 µM and 3.63. For `CC(C)OC(=O)[C@H](C)N[P@](=O)(OCC1=C[C@@H](O)[C@H](n2ccc(N)nc2=O)O1)Oc1ccccc1` [Compound 21, 3′-Deoxy-3′,4′-didehydrocytidine-5′-O-[phenyl(isopropoxy-L-alaninyl) ]-Sp-phosphoramidate], in the series with EBV (Akata/Akata), the “EBV SI50” value was greater than 2 µM. Moreover, in the series on EBV (Akata/Akata) (Primary), the “Normalised value = (Compound EC50/CDV control EC50)” value was determined as 2.88.

In the case of `CC(C)C(=O)OCC1=CC[C@H](n2ccc(N)nc2=O)O1` [Compound 39, 3′,4′-Didehydro-2′,3′-dideoxy-5′-O-isobutyroylcytidine], the entries for the “Normalised value = (Compound EC50/CDV control EC50)” value in the series with HHV-6B (Z29; MOLT-3) (Primary) and in the series on HHV-6B (Z29; MOLT-3) (Secondary) were 1.62 and 3.91, respectively.

In the case of `Nc1nc(O)c2ncn(COC(CO)CO)c2n1` [Ganciclovir, ganciclovir, reference compound], in series [1], the “HCMV SI50” value is greater than 272 µM. `Nc1ccn([C@@H]2OC(CO)=C[C@H]2O)c(=O)n1` [ddhC, 3′-Deoxy-3′,4′-didehydro-cytidine, reference compound]: in the series with EBV (Akata/Akata), the “EBV SI50” value was greater than 1 µM. Also, in the series on EBV (Akata/Akata) (Primary), the “Normalised value = (Compound EC50/CDV control EC50)” value is reported as 4.7.

For `CC(C)C(=O)OCC1=C[C@@H](O)[C@H](n2ccc(N)nc2=O)O1` [drawing 64, 3′-Deoxy-3′,4′-didehydro-5′-O-isobutyroyl-cytidine], the “Normalised value = (Compound EC50/CDV control EC50)” value in the series on EBV (Akata/Akata) (Secondary) turned out to be 2.14. Regarding `CC(=O)OCC1=C[C@@H](O)[C@H](n2ccc(N)nc2=O)O1` [drawing 67], in the series with EBV (Akata/Akata) (Primary), the “Normalised value = (Compound EC50/CDV control EC50)” value was 2.71. On to `CC(=O)OCC1=C[C@@H](O)[C@H](n2ccc(N)nc2=O)O1` [drawing 68], for which the “Normalised value = (Compound EC50/CDV control EC50)” value in the series with EBV (Akata/Akata) (Secondary) worked out at 3.08. Same read-out and setting: the same measure for `CC(C)(C)C(=O)OCC1=C[C@@H](O)[C@H](n2ccc(N)nc2=O)O1` [drawing 69]: 2.67; for `CC(C)[C@H](N)C(=O)OCC1=C[C@@H](O)[C@H](n2ccc(N)nc2=O)O1` [drawing 70]: 3.1. For `Nc1ccn([C@H]2CC=C(CO)O2)c(=O)n1` [drawing 72, 3′,4′-Didehydro-2′,3′-dideoxycytidine], in the series with EBV (Akata/Akata) (Primary), the “Normalised value = (Compound EC50/CDV control EC50)” value stood at 11.49.

On to `CC(C)C(=O)OCC1=CC[C@H](n2ccc(N)nc2=O)O1` [drawing 73, 3′,4′-Didehydro-2′,3′-dideoxy-5′-O-isobutyroylcytidine], for which the “Normalised value = (Compound EC50/CDV control EC50)” value in the series with EBV (Akata/Akata) (Primary) stood at 2.44. With `CC(C)C(=O)OCC1=CC[C@H](n2ccc(N)nc2=O)O1` [drawing 74, 3′,4′-Didehydro-2′,3′-dideoxy-5′-O-isobutyroylcytidine], the “Normalised value = (Compound EC50/CDV control EC50)” value with EBV (Akata/Akata) (Secondary) came to 3.67. In the case of `CCCCCC(=O)OCC1=C[C@@H](O)[C@H](n2ccc(N)nc2=O)O1` [drawing 75], in the series with EBV (Akata/Akata) (Primary), the “Normalised value = (Compound EC50/CDV control EC50)” value came to 0. In the case of `CC(C)(C)C(=O)OCOP(=O)(OCOC(=O)C(C)(C)C)OCC1=C[C@@H](O)[C@H](n2ccc(N)nc2=O)O1` [drawing 76], the “Normalised value = (Compound EC50/CDV control EC50)” value with EBV (Akata/Akata) (Primary) is listed as 0.

As to `CCC(CC)COC(=O)[C@H](C)N[P@](=O)(OCC1=C[C@@H](O)[C@H](n2ccc(N)nc2=O)O1)Oc1ccccc1` [drawing 77], the “Normalised value = (Compound EC50/CDV control EC50)” value in the series on EBV (Akata/Akata) (Primary) worked out at 0.
